Source: PMC6514670, “Field-Based Affinity Optimization of a Novel Azabicyclohexane Scaffold HIV-1 Entry Inhibitor” (Molecules, 2019)
Read-outs that look alike come from different tables or passages of the source.

System: B41 SOSIP.664 trimer
Assay: Differential scanning calorimetry (thermostability of trimer with compound)
Design: species or system HIV-1
[1] = B41 SOSIP.664 0.25 mg/mL + 2 μg compound, 1 h room temperature, peak of highest intensity
[2] = B41 SOSIP.664 0.25 mg/mL + 2 μg compound, peak of second highest intensity
[3] = relative change of primary Tm from the inhibitor-free control

| Structure (SMILES) | Tm primary [1] [°C] | Tm secondary [2] [°C] | ΔTm [3] | Tm primary [°C] | Tm secondary [°C] | ΔTm |
| --- | --- | --- | --- | --- | --- | --- |
| COc1cnc(-n2cnc(C)n2)c2[nH]cc(C(=O)C(=O)N3CC4CN(C(=O)c5ccccc5)CC4C3)c12 (stereo not drawn) [SC11] | 66.6 | 59.4 | +7.8 °C |  |  |  |
| COc1cnc(-n2cnc(C)n2)c2[nH]cc(C(=O)C(=O)N3CC(CCC(=O)c4ccccc4)C3)c12 [SC15] |  |  |  | 62.7 | 71.4 | +3.9 °C |
| COc1cnc(-n2cnc(C)n2)c2[nH]cc(C(=O)C(=O)NC3C4CN(C(=O)c5ccccc5)CC43)c12 (stereo not drawn) [SC28] | 60.0 | 69.5 | +1.2 °C |  |  |  |
| COc1cnc(-n2cnc(C)n2)c2[nH]cc(C(=O)C(=O)N3CC=C(CNC(=O)c4ccccc4)CC3)c12 [SC45] |  |  |  | 60.3 | 69.8 | +1.5 °C |
